Patent publication US20260382604A1, “Inhibitors of Type 1 Methionyl-tRNA Synthetase and Methods of Using Them” (published 2026)

Assays:
S. aureus = experiment: Serum shift MIC, S. aureus; conditions: serum shift procedure, with serum (50% human serum)
Excerpt: (§1) Media and culture conditions. Mueller Hinton broth (MHB), cation adjusted Mueller Hinton broth (CA-MHB), Todd Hewitt Broth (THB) and Brain Heart Infusion broth (BHI) were purchased from Becton Dickinson (Franklin Lakes, NJ). Tryptic soy agar (TSA) plates and TSA with 5% sheep blood plates were purchased from Remel (San Diego, CA). MHB was used to assay all Staphylococcus aureus strains. CA-MHB was used for Staphylococcus epidermidis, Enterococcus faecalis, Enterococcus faecium, Escherichia coil, and Pseudomonas aeruginosa. THB broth supplemented with 1% yeast extract was used for Streptococcus pneumoniae and Streptococcus pyogenes. Staphylococcus. Enterococcus, Escherichia, and Pseudomonas strains were cultured at 37 °C with ambient air. Streptococcus strains were cultured in 37 °C with 5% CO2. Separate conditions for radiolabeled precursor uptake assays are described below.
(§2) Susceptibility testing: Minimum inhibitory concentration (MIC) determinations are performed in triplicate in 96-well round bottom microtiter plates (Corning, Corning NY) as described by the Clinical and Laboratory Standards Institute (CLSI). Serial two-fold dilutions of compounds are added to plates in 50 μL volumes. An additional 50 μL of media containing bacterial cells (1×10^6 CFUs/mL) is then added to each well. Maximum DMSO concentrations are 0.5%. Plates are incubated at 37 °C for at least 18 h before reading the susceptibility result by optical absorbance (OD600) using a BioTek ELx800. The lowest concentration causing ≥90% growth inhibition compared to the untreated control is recorded as the MIC (and also corresponded to the visual MIC). MICs are measured at least twice and the higher value (if different) is recorded herein.
(§3) Serum shift assays: To assess the role of protein binding on compound susceptibility, MIC determinations are performed in triplicate in the presence and absence of 50% human serum. Serial threefold dilutions of 2× compound are generated in MHB or THY (depending on organism) and aliquoted onto 96 well plates with a DMSO limit of 0.5%. Bacteria are adjusted to 1*10^8 CFUs/mL in media, then further diluted 1:100 in media and 100% heat deactivated filter sterilized pooled human serum. Fifty microliters are added to each well of the corresponding plates, and the plates are incubated at 37 °C for ~20 h. The lowest concentration causing ≥90% growth inhibition is recorded as the MIC.

S. pyogenes = experiment: Serum shift MIC, S. pyogenes; conditions: serum shift procedure, with serum (50% human serum)
Excerpt: as §1, §2, §3

[1] = test system: S. aureus (MRSA strain AH4827); experiment: Murine thigh infection model (neutropenic, luminescent MRSA)
Excerpt: Murine thigh infection model. Animal studies are approved by the Institutional Animal Care and Use Committee at the University of Washington, Seattle. Female specific pathogen free CD1 mice are obtained from Charles River (Wilmington. MA) weighing 23-27 grams and allowed at least 3 days to acclimate prior to study. Mice had access to food and water ad libitum. Neutropenia is induced by administering cyclophosphamide monohydrate (Sigma Aldrich C7397; St. Louis, MO) via IP injection 4 days (at 150 mg/kg) and 1 day (at 100 mg/kg) prior to infection. Neutropenic status is confirmed by neutrophil count <100 cells/mm^3.
Overnight culture of luminescent MRSA (strain AH4827 is diluted 1:100 in MHB and incubated until reaching mid-log phase (OD600<0.750). The inoculum is prepared by pelleting log-phase culture and re-suspending in sterile dPBS. The culture is adjusted to OD600 of 0.200 and diluted 1:100 in sterile dPBS correlating to an inoculum of ~2*10^5 CFU/100 μL. The mice are infected by an intramuscular injection of 100 μL in the right posterior thigh while under isoflurane gas anesthesia. At 1 h post infection, one control group is sacrificed for determination of initial inoculum (status level of infection) after all mice are imaged by IVIS to confirm infection. Mice are dosed at 2 and 14 h post-infection or 2, 10, and 18 h post-infection with test compounds (below); they received a SC dose of 5 mg/kg ketoprofen at 2 h post-infection for pain management. Mice are imaged by IVIS at 24 h post-infection then sacrificed; the thigh muscle is sterilely removed, weighed, homogenized in 5 mLs dPBS, serially diluted, plated on tryptic soy agar in duplicate, and incubated overnight at 37 °C. Colonies are counted to quantify the bacterial load in CFUs per gram of thigh tissue.
Linezolid as positive control is administered 50 mg/kg PO according to dosing regimen used for experimental compounds.
Test compounds and linezolid control are administered PO (orally) or SC (by subcutaneous injection) in 200 μL of vehicle containing 7% Tween80, 5% DMSO, 3% EtOH in saline.

T. cruzi [2] = experiment: T. cruzi growth inhibition assay; conditions: read-out: In Vitro EC50; anti-T. cruzi activity in vitro (Table 3)
T. cruzi [3] = experiment: In vivo acute T. cruzi infection model
Protocol: In vivo acute T crud infection model. Swiss Webster mice were infected with 2×10^4 Trypanosoma cruzi trypomastigotes expressing a red-shifted luciferase gene IP on day zero (M. D. Lewis et al. J Biomol Screen 2015; 20(1):36-43). Mice were dosed orally with the test compounds, vehicle, or the control drug (benznidazole) for 5 days (days 7-11 post-infection). The parasites were imaged and quantified using an IVIS imaging system at multiple time points. The substrate D-luciferin potassium salt was injected SC at 150 mg/kg into mice, followed by imaging 10-15 minutes post injection. Images were taken for each set of mice both dorsally and ventrally. Auto-exposure settings are used with a maximum exposure time set to 5 minutes. The signal from these images is combined and standardized by converting the readouts to radiance (photons/sec/cm^2/sr). The decrease in luminescence compared to vehicle control was quantified on day 13 post-infection.

MRSA strain (ATCC 33591) = experiment: Time-kill synergy assay with fusidic acid; conditions: combination of 2541 and fusidic acid compared to the drugs by themselves; 24 hr; 0.25× and 0.125×MIC
Protocol: Methods for Time-kill synergy assays: 2541 and fusidic acid were tested against MRSA strain (ATCC 33591). Combination solutions were made by adding both compounds from DMSO stocks into 5 ml of CA-MHB at 0.25×, and 0.125× the MIC concentration of the compounds respectively. Individual test solutions were also made for each compound at 0.25×, and 0.125× their MIC concentrations. All of the test solutions were made in 12 ml snap cap falcon tubes and were vortexed for a minute to ensure the compound was fully mixed. The test organism was then taken from a fresh overnight culture and added to each tube at a starting OD of 0.04. which is equivalent to 1×10^3 CFU/ml. A no drug control was also started at this time by adding the test organism to 5 ml of CA-MHB that at the same starting concentration. Tubes were incubated at 37 °C on a shaker, 200 uL samples of the test solutions were taken at 0, 1, 3, 5, 7, and 24 hours after the bacteria was added and the OD600 reading was recorded at these times. At each of these time points the 200 ul sample was also plated in serial 10 dilutions on fresh TSA plates. The plates were incubated at 37 °C for 18 hours and then the colonies were counted to determine the CFU/ml at each of the time points.

## COc1cc(Cl)c(-c2c(F)ncc3nc(Cc4nc5nc(Cl)ccc5[nH]4)cn23)cc1OC
S. aureus
  S. aureus MIC w Serum: 1 µg/mL
S. pyogenes
  S. pyogenes MIC w serum: 2 µg/mL
[1]; PO, dose 25, 3 times/day
  Log decrease from vehicle: 3.6
[1]; PO, dose 50, 3 times/day
  Log decrease from vehicle: 4.5
[1]; SC, dose 50, 3 times/day
  Log decrease from vehicle: 4.0
[1]; compared to other non-fluorinated analog compounds
  in vivo efficacy (in words): useful in vivo efficacy
T. cruzi [2]
  EC50: 14 nM
T. cruzi [3]; PO, dose 50, 2 times/day, 5 days of treatment
  Log decrease from vehicle: 2.94 and 3.05
T. cruzi [3]; compared to non-fluorinated analogs such as 2503 and 2602
  in vivo efficacy (in words): useful in vivo efficacy
MRSA strain (ATCC 33591)
  decrease in CFU counts: > 2 log units

Where “and” joins values, the source holds several entries; their conditions need not be identical. Identical values can stand only once.
